{"source": "patent US20050282254", "proteins": {"B1": {"name": "Pro39 (C-terminal cysteine protease domain of Semliki Forest virus non-structural protein nsP2) (protein)", "chain": "KVIEGPAAPVDAFQNKANVCWAKSLVPVLDTAGIRLTAEEWSTIITAFKEDRAYSPVVALNEICTKYYGVDLDSGLFSAPKVSLYYENNHWDNRPGGRMYGFNAATAARLEARHTFLKGQWHTGKQAVIAERKIQPLSVLDNVIPINRRLPHALVAEYKTVKGSRVEWLVNKVRGYHVLLVSEYNLALPRRRVTWLSPLNVTGADRCYDLSLGLPADAGRFDLVFVNIHTEFRIHHYQQCVDHAMKLQMLGGDALRLLKPGGSLLMRAYGYADKISEAVVSSLSRKFSSARVLRPDCVTSNTEVFLLFSNFDNGKRPSTLHQMNTKLSAVYAGEAMHTAGC"}}, "target": "recombinant protein of two full size thioredoxine domains with modified protease recognition site between them [thioredoxin: P0AA25]", "data": [{"protein": "B1", "values": [{"measurement": "cleavage efficiency, Pro39, SDS-PAGE", "result": "the cleavage efficiency was significantly enhanced as compared to cleavage of recognition sites placed between structured and non-structured protein sequences"}]}]}
